# In ChEMBL document CHEMBL1135896, “Synthesis and notable antimalarial activity of acyclic peroxides, L-(alkyldioxy)-L-(methyldioxy)cyclododecanes” (J Med Chem, 2002):
# System: Plasmodium falciparum
# Test: Antimalarial activity in vitro; Not active
smiles,measurement,value
CCCCCCCCC1OOCCCOO1,NA,inactive

# The source made the active and inactive calls. The calls are words filed in the database; no cut-off is given here.
